Test system: HIV-IIIb
Test: Antiviral assay in MT-2 cells infected with HIV-IIIb
Type: cell-based
Settings: read-out: EC50 in MT-2 cells, m.o.i. 0.01, 10% FBS, 5 days at 37° C., CellTiter-Glo chemiluminescence

Compound | EC50
CNC(=O)c1c(O)c2ncc(Cc3ccc(F)cc3)c3c2n(c1=O)C[C@@H](CN1CCN(S(C)(=O)=O)CC1)O3 | 0.3 nM
CNC(=O)c1c(O)c2ncc(Cc3ccc(F)cc3)c3c2n(c1=O)CC[C@H](C(=O)NC)O3 | 43 nM
